Compound potency records, mixed from different reports. Data source: NIAID ChemDB in PubChem.

Common to all: whole-cell or culture tests; organism: HIV-2; cells: CEM + CEM/O; read-out: EC50

ECn: concentration that inhibits the pathogen or its effect by n%. Neighbouring rows are from separate reports. Blank or dashed fields: not listed here.

{"SMILES": "Cc1cn([C@H]2C=C[C@@H](COP3(=O)Oc4ccccc4C(C(Cl)Cl)O3)O2)c(=O)[nH]c1=O", "result": "0.55 µM"}
{"SMILES": "COC(=O)CC(OP(=O)(OC[C@@H]1C=C[C@H](n2cc(C)c(=O)[nH]c2=O)O1)OC(CC(=O)OC)c1ccc(OC(C)=O)cc1)c1ccc(OC(C)=O)cc1", "strain or isolate": "ROD", "read by": "cytopathic effect / syncytia", "result": "0.3 µM"}
{"SMILES": "Cc1cn([C@H]2C[C@H](N=[N+]=[N-])[C@@H](COP3(=O)OCc4ccccc4O3)O2)c(=O)[nH]c1=O", "result": "0.005 µM"}
{"SMILES": "Cc1cn([C@H]2C=C[C@@H](COP3(=O)Oc4ccccc4C(C)O3)O2)c(=O)[nH]c1=O", "strain or isolate": "ROD", "read by": "cytopathic effect / syncytia", "result": "0.34 µM"}
{"SMILES": "CC(=O)OCOC(=O)CCc1ccc2c(c1)COP(=O)(OC[C@@H]1C=C[C@H](n3cc(C)c(=O)[nH]c3=O)O1)O2", "strain or isolate": "LAV-2", "read by": "syncytia", "result": "0.53 µM"}
{"SMILES": "CCCCCCCCCCCCCCCCOCCOP(=O)(O)OC[C@H]1O[C@@H](n2cc(C)c(=O)[nH]c2=O)C[C@@H]1N=[N+]=[N-]", "strain or isolate": "ROD", "read by": "syncytia", "result": "0.052 µM"}
{"SMILES": "Cc1cn([C@H]2C=C[C@@H](CO)O2)c(=O)[nH]c1=O", "strain or isolate": "ROD", "read by": "cytopathic effect / syncytia", "result": "0.25 µM"}
{"SMILES": "Cc1cn([C@H]2C=C[C@@H](COP3(=O)OCc4ccc5ccccc5c4O3)O2)c(=O)[nH]c1=O", "strain or isolate": "ROD", "read by": "syncytia", "result": "0.1 µM"}
{"SMILES": "Cc1cc(C)c2c(c1)COP(=O)(OC[C@H]1O[C@@H](n3cc(C)c(=O)[nH]c3=O)C[C@@H]1N=[N+]=[N-])O2", "result": "0.017 µM"}
{"SMILES": "Cc1cccc2c1OP(=O)(OC[C@@H]1C=C[C@H](n3cc(C)c(=O)[nH]c3=O)O1)OC2", "strain or isolate": "LAV-2", "read by": "syncytia", "result": "0.1 µM"}
{"SMILES": "Cc1cn([C@H]2C=C[C@@H](COP3(=O)OCc4c(ccc5ccccc45)O3)O2)c(=O)[nH]c1=O", "strain or isolate": "ROD", "read by": "syncytia", "result": "0.14 µM"}
{"SMILES": "CCCCCCCCCCCCCCOP(=O)(O)OC[C@H]1O[C@@H](n2cc(C)c(=O)[nH]c2=O)C[C@@H]1N=[N+]=[N-]", "strain or isolate": "ROD", "read by": "syncytia", "result": "0.92 µM"}
{"SMILES": "COc1ccc2c(c1)COP(=O)(OC[C@H]1O[C@@H](n3cc(C)c(=O)[nH]c3=O)C[C@@H]1N=[N+]=[N-])O2", "result": "0.021 µM"}
{"SMILES": "CCOC(=O)CC1OP(=O)(OC[C@@H]2C=C[C@H](n3cc(C)c(=O)[nH]c3=O)O2)Oc2ccccc21", "strain or isolate": "ROD", "read by": "cytopathic effect / syncytia", "result": "0.33 µM"}
{"SMILES": "Cc1cn([C@H]2C=C[C@@H](COP3(=O)OCc4cc5ccccc5cc4O3)O2)c(=O)[nH]c1=O", "result": "0.5 µM"}
{"SMILES": "CCCCCCCCCCCCOCCOP(=O)(O)OC[C@H]1O[C@@H](n2cc(C)c(=O)[nH]c2=O)C[C@@H]1N=[N+]=[N-]", "strain or isolate": "ROD", "read by": "syncytia", "result": "0.133 µM"}
{"SMILES": "Cc1cccc2c1O[P@](=O)(OC[C@@H]1C=C[C@H](n3cc(C)c(=O)[nH]c3=O)O1)OC2", "result": "0.07 µM"}
{"SMILES": "COc1cccc2c1OP(=O)(OC[C@H]1O[C@@H](n3cc(C)c(=O)[nH]c3=O)C[C@@H]1N=[N+]=[N-])OC2", "result": "0.009 µM"}
{"SMILES": "CCC(C)C(NP(=O)(OC[C@@H]1C=C[C@H](n2cc(C)c(=O)[nH]c2=O)O1)Oc1ccccc1)C(=O)OC", "strain or isolate": "ROD", "read by": "syncytia", "result": "12.5 µM"}
{"SMILES": "Cc1cn([C@H]2C=C[C@@H](COP3(=O)OCc4c(Cl)cccc4O3)O2)c(=O)[nH]c1=O", "result": "0.15 µM"}
{"SMILES": "Cc1cn([C@H]2C=C[C@@H](COP3(=O)OCc4cc(-c5ccccc5)ccc4O3)O2)c(=O)[nH]c1=O", "strain or isolate": "ROD", "read by": "syncytia", "result": "0.47 µM"}
{"SMILES": "COC(=O)C(C)(C)NP(=O)(OC[C@@H]1C=C[C@H](n2cc(C)c(=O)[nH]c2=O)O1)Oc1ccccc1", "strain or isolate": "ROD Laboratory clade B", "read by": "syncytia", "result": "0.5 µM"}

For reference, 3 entries again:

| SMILES | strain or isolate | read by | result |
|---|---|---|---|
| Cc1cn([C@H]2C=C[C@@H](CO)O2)c(=O)[nH]c1=O | ROD | cytopathic effect / syncytia | 0.25 µM |
| CCOC(=O)CC1OP(=O)(OC[C@@H]2C=C[C@H](n3cc(C)c(=O)[nH]c3=O)O2)Oc2ccccc21 | ROD | cytopathic effect / syncytia | 0.33 µM |
| COc1cccc2c1OP(=O)(OC[C@H]1O[C@@H](n3cc(C)c(=O)[nH]c3=O)C[C@@H]1N=[N+]=[N-])OC2 |  |  | 0.009 µM |